Test system: S. aureus DP7-R
Assay type: cell-based, Staphylococcus aureus
Conditions: DP7-resistant strain obtained from ATCC 25923
Method: Subsequently, the bacterial samples were counted at different time points (0, 1, 2, 4, 6, 8, 18, and 24 h).
For every 48 h, we transferred 2% of each culture to new flasks containing fresh medium with a twofold higher DP7 concentration. […] Aliquots from each population were stored in 20% glycerol at -80°C.

## VQLRIRVCVIRK [DP10, synthesized antimicrobial peptide]
  MIC for DP7-R: 256 µg/mL
